Source: article PMC7038234, “Screening of Natural Extracts for Inhibitors against Japanese Encephalitis Virus Infection” (Antimicrobial Agents and Chemotherapy, 2020)
Structures can show the parent of a compound that is named as a salt.

System: JEV strain AT31
Assay: microbe, parasite or virus in culture
Settings: Japanese encephalitis virus, 24 h, Primary screening of 1034 compounds in the natural extracts library

SMILES	inhibition at 50 µM
CC1(C)CC[C@]2(C(=O)O)CC[C@]3(C)C(=CC[C@@H]4[C@@]5(C)CCC(=O)C(C)(C)[C@@H]5CC[C@]43C)[C@@H]2C1 [Oleanonic acid]	5.3%
O=C(/C=C/c1ccc(O)c(O)c1)O[C@H](Cc1ccc(O)c(O)c1)C(=O)O [Rosmarinic acid]	10.7%
C/C=C/c1ccc(OC)c(OC)c1 [Methyl isoeugenol]	-12.9%
COC(=O)[C@@H]1[C@H]2C[C@H]3c4[nH]c5ccccc5c4CCN3C[C@@H]2CC[C@@H]1O [Yohimbine Hydrochloride]	92%
O=P(O)(O)O[C@H]1[C@H](OP(=O)(O)O)[C@@H](OP(=O)(O)O)[C@H](OP(=O)(O)O)[C@@H](OP(=O)(O)O)[C@H]1OP(=O)(O)O [Phytic acid]	38.6%
CC(C)=CCC/C(C)=C/COc1ccc2ccc(=O)oc2c1 [Auraptene]	15.7%
C=C[C@H]1CN2CC[C@@]3(C(=O)Nc4ccccc43)[C@@H]2C[C@@H]1/C(=C\OC)C(=O)OC [Isocorynoxeine]	33.7%
Cn1cnc2c1c(=O)[nH]c(=O)n2C [Theobromine]	14.1%
COc1cc([C@@H]2c3cc4c(cc3[C@H](O)[C@H]3COC(=O)[C@@H]23)OCO4)cc(OC)c1OC [Picropodophyllin]	-10.8%
CCOC(=O)/C=C/c1ccc(O)c(O)c1 [Ethyl caffeate]	14.6%
C=C1C(=O)[C@@]23[C@H](O)C[C@@H]4C(C)(C)C(=O)CC[C@@]4(C)[C@@H]2CC[C@@H]1[C@H]3O [glaucocalyxin A]	80.1%
O[C@@H]1[C@@H](O)[C@H](OC/C=C/c2ccccc2)O[C@H](CO[C@@H]2OC[C@H](O)[C@H](O)[C@H]2O)[C@H]1O [rosavin]	17.2%
CC(C)=CCC[C@](C)(O)[C@H]1CC[C@]2(C)[C@@H]1[C@H](O)C[C@@H]1[C@@]3(C)CC[C@H](O)C(C)(C)[C@@H]3[C@@H](O[C@@H]3O[C@H](CO)[C@@H](O)[C@H](O)[C@H]3O[C@@H]3O[C@@H](C)[C@H](O)[C@@H](O)[C@H]3O)C[C@]12C [Ginsenoside Rg2]	6.46%
CCCCC[C@H](O)CC(=O)CCc1ccc(O)c(OC)c1 [6-Gingerol]	-4.11%
COC(=O)C1=CC[C@@]23CC[C@@H]([C@@](C)(/C=C/C=C(\C)C(=O)O)OC2=O)[C@@]3(OC(C)=O)CC1 [Pseudolaric Acid B]	-1.84%
O=C(O)c1cc(O)c2c(c1)[C@H]([C@H]1c3cc(C(=O)O)cc(O)c3C(=O)c3c(O[C@@H]4O[C@H](CO)[C@@H](O)[C@H](O)[C@H]4O)cccc31)c1cccc(O[C@@H]3O[C@H](CO)[C@@H](O)[C@H](O)[C@H]3O)c1C2=O [SennosideA]	-9.78%
COC(=O)C1=CO[C@@H](O[C@@H]2O[C@H](CO)[C@@H](O)[C@H](O)[C@H]2O)[C@@H]2C(CO)=CC[C@H]12 [geniposide]	12.4%
CC(C)=CCC[C@](C)(O)[C@H]1CC[C@]2(C)[C@@H]1[C@H](O)C[C@@H]1[C@@]3(C)CC[C@H](O[C@@H]4O[C@H](CO)[C@@H](O)[C@H](O)[C@H]4O)C(C)(C)[C@@H]3CC[C@]12C [Ginsenoside Rh2]	88.7%
COc1c(O)cc2oc(-c3ccc(O)cc3)cc(=O)c2c1O [hispidulin]	41.8%
COc1c(O)cc2occ(-c3ccc(O)cc3)c(=O)c2c1O [Tectorigenin]	8.13%
COc1cc([C@@H]2c3cc4c(cc3[C@H](O)[C@H]3COC(=O)[C@H]23)OCO4)cc(OC)c1OC [Podophyllotoxin]	-12.3%
CO[C@H]1O[C@@H]2O[C@@]3(C)CC[C@H]4[C@H](C)CC[C@@H]([C@H]1C)[C@@]24OO3 [Artemether]	-0.756%

SMILES	inhibition at 50 µM
C[C@@H]1O[C@@H](OC[C@H]2O[C@@H](Oc3cc(O)c4c(c3)O[C@H](c3ccc(O)cc3)CC4=O)[C@H](O)[C@@H](O)[C@@H]2O)[C@H](O)[C@H](O)[C@H]1O [Narirutin]	96.7%
CC(C)=CCC/C(C)=C\CO [Nerol]	1.46%
C=CCc1ccc(O)c(-c2cc(CC=C)ccc2O)c1 [Magnolol]	-28.9%
C=C1C[C@@]23CC[C@H]4[C@@](C)(CCC[C@@]4(C)C(=O)O)[C@@H]2CC[C@]1(O)C3 [Steviol]	8.84%
C=C(C)[C@@H]1CC[C@]2(CO)CC[C@]3(C)[C@H](CC[C@@H]4[C@@]5(C)CC[C@H](O)C(C)(C)[C@@H]5CC[C@]43C)[C@@H]12 [Betulin]	5.56%
C=C(C)[C@@H]1CC[C@]2(C=O)CC[C@]3(C)[C@H](CC[C@@H]4[C@@]5(C)CC[C@H](O)C(C)(C)[C@@H]5CC[C@]43C)[C@@H]12 [Betulinaldehyde]	-52%
COc1ccc(-c2oc3c(OC)c(OC)c(OC)c(OC)c3c(=O)c2OC)cc1OC [3,5,6,7,8,3',4'-Heptamethoxyflavone]	33.5%
O=c1c(-c2ccc(O[C@@H]3O[C@H](CO)[C@@H](O)[C@H](O)[C@H]3O)cc2)coc2cc(O)cc(O)c12 [Sophoricoside]	-3.53%
O=c1c(O)c(-c2ccccc2)oc2cc(O)cc(O)c12 [Galangin]	57.4%
COc1cc2oc(=O)ccc2cc1O [Isoscopoletin]	-9.14%
COc1c2c(cc3c1-c1c(cc4c(c1OC)OCO4)C[C@H](C)[C@H](C)C3)OCO2 [schisandrin C]	61.2%
O=c1c(O[C@@H]2O[C@@H](CO)[C@H](O)[C@H]2O)c(-c2ccc(O)c(O)c2)oc2cc(O)cc(O)c12 [Avicularin]	7.15%
COc1ccc(C(C)=O)c(O[C@@H]2O[C@H](CO[C@@H]3OC[C@H](O)[C@H](O)[C@H]3O)[C@@H](O)[C@H](O)[C@H]2O)c1 [Paeonolide]	28.3%
O=c1c2ccccc2nc2n1CCc1c-2[nH]c2ccccc12 [Rutaecarpine]	58.4%
CCOC(=O)C1=C[C@]2(CC)CCCN3CCc4c(n1c1ccccc41)[C@@H]32 [Vinpocetine]	34%
COc1cc(CCC(C)=O)ccc1O [Zingerone]	-5.51%
COc1ccc(-c2coc3cc(O)ccc3c2=O)cc1 [Formononetin]	-6.97%
C=C1CCC[C@]2(C)C[C@]3(O)OC(=O)C(C)=C3C[C@@H]12 [AtractylenolideIII]	7.63%
C=C(C)[C@H]1Cc2c(ccc3c2O[C@@H]2COc4cc(OC)c(OC)cc4[C@@H]2C3=O)O1 [Rotenone]	50.2%
CC1=C2C(=O)[C@H]3[C@@H](CC=C4C[C@@H](O)CC[C@@]43C)[C@@H]2CC[C@]12O[C@@H]1C[C@H](C)CN[C@H]1[C@H]2C [Jervine]	-1.91%
COC[C@@]12CC[C@H](OC)[C@]34C(C([C@H](OC)[C@H]13)[C@]1(OC(C)=O)[C@H]3[C@@H](OC(=O)c5ccccc5)[C@](O)(C[C@H]34)[C@@H](OC)[C@@H]1O)N(C)C2 [Hypaconitine]	94.8%
COC(=O)C1=CO[C@@H](C)[C@@H]2CN3CCc4c([nH]c5ccccc45)[C@@H]3C[C@H]12 [Tetrahydroalstonine]	-10.9%

SMILES	inhibition at 50 µM
Cc1c(C(=O)NCCO)[n+]([O-])c2ccccc2[n+]1[O-] [Olaquindox]	16.6%
C[C@H]1[C@H](C)CC[C@]2(C(=O)O)CC[C@]3(C)C(=CC[C@@H]4[C@@]5(C)C[C@@H](O)[C@H](O)[C@@](C)(CO)[C@@H]5CC[C@]43C)[C@H]12 [Asiatic acid]	-51%
C/C=C/c1ccc(OC)cc1 [Anethole]	4.81%
COc1ccc2c(c1O)-c1c(O)c(OC)cc3c1[C@H](C2)[N+](C)(C)CC3 [magnoflorine]	-3.88%
CC(=O)O[C@]12CCC(C)=CC[C@]13CC[C@H]2[C@@](C)(/C=C/C=C(\C)C(=O)O)OC3=O [Pseudolaric Acid A]	46.2%
COC(=O)C1=CO[C@@H](O[C@@H]2O[C@H](CO)[C@@H](O)[C@H](O)[C@H]2O)[C@@H]2[C@@H](C)[C@@H](O)C[C@H]12 [Loganin]	25.4%
COC(=O)[C@@H](Cc1ccc(O)c(O)c1)OC(=O)/C=C/c1ccc(O)c(O)c1 [Methylrosmarinate]	29.7%
COc1c(O)cc(O)c2c(=O)cc(-c3ccccc3)oc12 [Wogonin]	11.1%
C=C1C(=O)O[C@@]23[C@H]1CC[C@@H](C)[C@@H]2CC[C@@]1(C)O[C@@H]31 [Arteannuin B]	8.03%
COc1cc2c3c(c1OC)-c1ccccc1C[C@H]3N(C)CC2 [Nuciferine]	-0.167%
COc1cc(-c2oc3cc(O)cc(O)c3c(=O)c2O)ccc1O [Isorhamnetin]	46.1%
C=CC(C)(O)CCC=C(C)C (stereo not drawn) [Linalool]	-3.9%
COc1cc(O)c2c(=O)c(-c3ccc(O)cc3)coc2c1 [Prunetin]	22%
COc1ccc(-c2cc(=O)c3c(OC)c(OC)c(OC)cc3o2)cc1OC [Sinensetin]	13.9%
C[C@@]1(CO)C[C@@H](O)C[C@@]2(C)[C@@H]3CC[C@](C)([C@@H](O)CO)C=C3CC[C@H]12 [Kirenol]	12.3%
CC(C)(C)[C@]1(O)CC2OC(=O)CC23C(=O)OC2OC(=O)[C@H](O)C231 (stereo partly drawn) [Bilobalide]	1.84%
O=C(O)[C@]1(O)C[C@@H](O)[C@@H](O)[C@H](O)C1 [Quinic acid]	24.7%
OC[C@H]1O[C@H](OC[C@H]2O[C@H](O[C@]3(CO)O[C@H](CO)[C@@H](O)[C@@H]3O)[C@H](O)[C@@H](O)[C@@H]2O)[C@H](O)[C@@H](O)[C@H]1O [raffinose]	-6.42%
C[C@H]1[C@H](C)CC[C@]2(C(=O)O)CC[C@]3(C)C(=CC[C@@H]4[C@@]5(C)C[C@@H](O)[C@H](O)[C@@](C)(CO)[C@@H]5[C@H](O)C[C@]43C)[C@H]12 [Madecassic acid]	8.87%
C=C1CC[C@@H]2[C@](C)(CO[C@@H]3O[C@H](CO)[C@@H](O)[C@H](O)[C@H]3O)CCC[C@@]2(C)[C@@H]1CCC1=CCOC1=O [Neoandrographolide]	23.3%
OCC1=C[C@@H](O)[C@@H]2C=CO[C@@H](O[C@@H]3O[C@H](CO)[C@@H](O)[C@H](O)[C@H]3O)[C@H]12 [Aucubin]	-8.82%
CC[C@]12CCCN3CCc4c(n(c5ccccc45)[C@@](O)(C(=O)OC)C1)[C@@H]32 [Vincamine]	2.5%
